Laboratory results from US5686428A, “Pharmaceutical composition” (priority 1994, dated 1997).

Key:
HIV-1 (strain LAV-1) = experiment: HIV-1 replication in infected human PBM cells (RT activity of disrupted virions); type: cell-based; conditions: HIV-1 infected cells
From the text: Cells, virus strains, and cell culture assays. PBM cells from healthy HIV-1 and hepatitis B virus seronegative donors were isolated and propagated as described previously (35). HIV-1 (strain LAV-1) was obtained from the Centers for Disease Control, Atlanta, and propagated in PHA-stimulated human PBM cells as described previously (35). The details of the methods used for infection and assaying the anti-HIV-1 effect in infected human PBM cells have been reported (35).
RT activity assay with disrupted virions. Six ml supernatant from each culture was clarified from cells at 300× g for 10 minutes. […]
The RT assays were performed at 37° C. in 96-well microtiter plates using methods described previously (35, 38). The results were expressed as dpm/ml of the originally clarified supernatant.
(§1) Calculation of synergy. […] The interaction between two compounds was determined by calculating the combination index (C.I.) with assumptions, where appropriate, of either mutually exclusive or non-exclusive interactions. When uncertainty existed as to whether the drugs acted in similar or independent manners, the determination of C.I.-values were calculated under each assumption and compared. […]

HCMV strain Ad169 = experiment: HCMV plaque reduction assay in HEL cells; type: cell-based, human cytomegalovirus; conditions: CMV infected cells
Protocol: HCMV strain Ad169 was a gift from Dr. Fred Rapp, Hersey, Pa. Human embryonic lung (HEL) cells, obtained from the American Type Culture Collection, Rockville, Md., were cultured in Dulbecco modified Eagle medium as decribed previously (39). Viable cells were conducted microscopically using a hemacytometer and the trypan blue exclusion method. Plaque reduction assays were performed in confluent monolayers of HEL cells in 6-well plates (Costar, Cambridge, Mass.) with 100 to 200 pfu of HCMV Ad169. After an adsorption period of 1 hour, unadsorbed virus was removed and the monolayers were overlaid with Dulbecco modified Eagle medium containing 0.75% SeaPlaque agarose (FMC BioProducts, Rockland, Me.), 2% heat inactivated fetal calf serum, and the appropriate concentration of drug. […] The monolayers were then fixed with 10% buffered Formalin (Fisher Scientific Co, Fair Lawn, N.J.), stained with crystal violet, and the number of plaques were counted.
as §1

Question: `Cc1cn([C@H]2C[C@H](N=[N+]=[N-])[C@@H](CO)O2)c(=O)[nH]c1=O` [AZT, 3'-azido-3'-deoxythymidine] was tested. Which “m ± SE (slope of median effect plot)” value (HIV-1 (strain LAV-1)) did it give?
Answer: 3.02 ± 0.27

Question: And the “m ± SE (slope of median effect plot)” value (HCMV strain Ad169)?
Answer: 5.95

Question: Which “m ± SE (slope of median effect plot)” value (HIV-1 (strain LAV-1)) does the source give for `O=C(O)P(=O)(O)O` [PFA, phosphonoformic acid] here?
Answer: 1.89 ± 0.17

Question: And the “m ± SE (slope of median effect plot)” value (HCMV strain Ad169)?
Answer: 1.88 ± 0.10
